# Data: patent US20250276924A1, “CHEMICAL AND BIOLOGICAL DEGRADATION OF ETHER PER- AND POLYFLUOROALKYL SUBSTANCES” (The Regents of the University of California, priority 2024, published 2025)
# Experiments:
# [1] = tested on: activated sludge community; assay: Aerobic biotransformation and defluorination of ether PFAS in activated sludge batch reactors; conditions: for defluorination: incubation ≤28 days, result in words
# [2] = tested on: activated sludge community; assay: Aerobic biological post-treatment of UV/sulfite effluent with activated sludge; conditions: result in words
Structure (SMILES),defluorination [1],biotransformation of chemical treatment products [2],biotransformation of chemical treatment products ([2]; listed as trifluoropropionate),parent compound removal ([1]; aerobic incubation) [%]
"O=C(O)COCC(F)(F)F [E6, 2-(2,2,2-trifluoroethoxy)acetic acid]",not,,,
"O=C(O)CCOC(F)(F)F [E5, 3-(trifluoromethoxy)propanoic acid]",defluorination was observed,,,
"O=C(O)CC(F)(F)F [TP127, 3,3,3-trifluoropropanoic acid]",,completely defluorinated,completely destroyed,
"O=C(O)C(=O)C(F)(F)F [TP140, Trifluoropyruvate]",,nondefluorinating biotransformation,,
"CC(OC(F)(F)F)C(=O)O (stereo not shown) [E4, 2-(trifluoromethoxy)propanoic acid]",defluorination was observed,,,39.3

# Some compounds share one wording; it may come from a single statement.
